From article PMC3156716
Construct, isoform or probe ends are uncertain for at least one entry. Protein sequences can lack the tags named with them.

Molecular target: T1, His6-PhoP (UniProt Q9I4F9)
T1 sequence (looked up, limits assumed): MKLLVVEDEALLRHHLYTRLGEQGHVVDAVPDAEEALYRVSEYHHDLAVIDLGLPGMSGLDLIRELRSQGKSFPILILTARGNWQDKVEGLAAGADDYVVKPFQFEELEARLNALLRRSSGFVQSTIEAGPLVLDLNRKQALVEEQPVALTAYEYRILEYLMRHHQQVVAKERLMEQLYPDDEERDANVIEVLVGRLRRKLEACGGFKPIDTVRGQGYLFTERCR
Assay: EMSA
Settings: DIG Gel Shift Kit 2nd Generation (Roche) per manufacturer; 6% native polyacrylamide gel; pH and temperature not stated; recombinant protein; protein details: His6 (pET28a); label: digoxigenin; probe letters rebuilt from the primers and the genome

GAGGATCCGGGAACGCTGGAAACGCCGGCGTCGTCCGCGACCGCCGGCGACATCGGACCGAGCAGAAGCAGCAGGAAGCTGACGAGTAGTCCTATGGCGATCCGAAGCCGTACCACGGCGAAGTCCCTTCGAAGGTGAATGGCCGGATTATAGCCAAGTGGCCGTGGCAACGGCATAGGCCGCGGAAGCGCCGTGCGGCGCCCGCGGCTTCGGGCCCGGTCAGGACTCGCCGCGCTCGCGGGCGATGGCACGGTAGCCGATGTCCTTGCGGTAGAAGCAGCCGTTCCAGCGGATCTTCTCGGCCAGGCGATAGGCCTGTTGCTGGGCGGCGGACACGCTCTCGCCGATGGCGGTGGCACAGAGCACGCGGCCGCCTCGAGTC (double strand) [retS promoter, full length 366 bp]
binding result: binds
